PSTVd loop 15 mutant pool in Nicotiana benthamiana

The pool varies loop 15 of the PSTVd intermediate strain in the pattern GGAAACCGNNNNNNC; wild type is GGAAACCGCUACUAC (upper and lower strand joined, each 5' to 3', the first 7 letters being the upper strand, closing pairs included).

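A pool of all variants was put on leaves of three Nicotiana benthamiana plants. Samples came from the inoculated region at 5 days, the leaf margin at 10 and upper systemic leaves at 12.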

Numbers give reads per thousand; 0 = not seen among the reads, higher = more abundant. Each value is the mean of three plants. "Pool" is the share in the plasmid pool used as inoculum, on the same scale. The inoculated region was read from the minus strand, the other sites from the plus strand. IR is the inoculated region, LM the leaf margin, Sys the systemic leaves. For reference, wild type rose from 33.9 per thousand in the pool to 202, 200, 159 (inoculated region), 724, 746, 710 (leaf margin) and 856, 883, 880 (systemic leaves). Sequences that differ at fixed positions probably stem from PCR or sequencing errors, and defective variants can be carried along by functional ones. Samples held 43,870 to 66,106 reads, so the smallest values rest on one or two reads.

With GGAAACCGAGACACC (pool 0.320) the assay gave IR 0.125; LM 0.0254; Sys 0.
With GGAAACCGGUACUGC (pool 0.208) the assay gave IR 0.257; LM 0.112; Sys 0.0455.
With GGAAACCGAUCUAGC (pool 0.144) the assay gave IR 0.0560; LM 0.00539; Sys 0.
With GGAAACCGCUACAUC (pool 0.192) the assay gave IR 0.0909; LM 0.0228; Sys 0.00537.
With GGAAACCGUGGAAAC (pool 0.208) the assay gave IR 0.0631; LM 0.00742; Sys 0.00537.
With GGAAACCGUGUUGCC (pool 0.176) the assay gave IR 0.0678; LM 0.0108; Sys 0.
With GGAAACCGAGGAGUC (pool 0.352) the assay gave IR 0.108; LM 0; Sys 0.
With GGAAACCGAGUAAUC (pool 0.384) the assay gave IR 0.127; LM 0; Sys 0.
With GGAAACCGACUUACC (pool 0.208) the assay gave IR 0.0742; LM 0.00539; Sys 0.
With GGAAACCGAGUCGGC (pool 0.240) the assay gave IR 0.116; LM 0; Sys 0.
With GGAAACCGACGUUAC (pool 0.192) the assay gave IR 0.249; LM 0.0885; Sys 0.00537.
With GGAAACCGCCUCAUC (pool 0.256) the assay gave IR 0.224; LM 0.0134; Sys 0.
With GGAAACCGUUGAAAC (pool 0.240) the assay gave IR 0.108; LM 0.0141; Sys 0.00537.
With GGAAACCGUGGGACC (pool 0.288) the assay gave IR 0.0923; LM 0.0128; Sys 0.
With GGAAACCGAGUUUGC (pool 0.240) the assay gave IR 0.0768; LM 0.0141; Sys 0.
With GGAAACCGCACAGCC (pool 0.208) the assay gave IR 0.0496; LM 0.0121; Sys 0.00537.
With GGAAACCGAGGGGAC (pool 0.192) the assay gave IR 0.0899; LM 0.00668; Sys 0.
With GGAAACCGCAAUCAC (pool 0.144) the assay gave IR 0.308; LM 0.0941; Sys 0.0268.
With GGAAACCGGGUCAGC (pool 0.288) the assay gave IR 0.0741; LM 0; Sys 0.
With GGAAACCGAAUGGUC (pool 0.240) the assay gave IR 0.0922; LM 0.0316; Sys 0.0107.
With GGAAACCGUUCGGAC (pool 0.320) the assay gave IR 0.359; LM 0.133; Sys 0.0563.
With GGAAACCGCUUCACC (pool 0.224) the assay gave IR 0.0940; LM 0.00742; Sys 0.
With GGAAACCGUAAGCGC (pool 0.224) the assay gave IR 0.0893; LM 0.00668; Sys 0.
With GGAAACCGAUGAGGC (pool 0.288) the assay gave IR 0.0894; LM 0.00668; Sys 0.
With GGAAACCGACGCUUC (pool 0.272) the assay gave IR 0.216; LM 0.00742; Sys 0.
With GGAAACCGUGGGCAC (pool 0.240) the assay gave IR 0.0814; LM 0.0162; Sys 0.00537.
With GGAAACCGGCUAGCC (pool 0.208) the assay gave IR 0.127; LM 0.00668; Sys 0.
With GGAAACCGGUUACAC (pool 0.224) the assay gave IR 0.145; LM 0.0134; Sys 0.00537.
With GGAAACCGCCAUUGC (pool 0.0960) the assay gave IR 0.308; LM 0.101; Sys 0.0720.

2 of these entries, quoted again:

sequence,pool,IR,LM,Sys
GGAAACCGAGUAAUC,0.384,0.127,0,0
GGAAACCGGUUACAC,0.224,0.145,0.0134,0.00537

The measurements come from Wu et al. 2024 (doi:10.1371/journal.ppat.1012142).